# Several values for one entry are separate records, joined by “and”; a condition that tells them apart may be missing. Equal entries are not always repeated. Entries after “also recorded” stand apart in the source; their conditions may differ.
# Assay: EPR spin trapping with DMPO after reaction of AcEP with FeSO4
# Details: for DMPO spin adduct Assignment / DMPO spin adduct aH (proton hyperfine coupling constant) / DMPO spin adduct aN (nitrogen hyperfine coupling constant) / DMPO spin adduct aN/aH: reductant Fe^2+, WINSIM simulation of EPR spectra
SMILES,DMPO spin adduct Assignment,DMPO spin adduct aH (proton hyperfine coupling constant),DMPO spin adduct aN (nitrogen hyperfine coupling constant),DMPO spin adduct aN/aH,"DMPO spin adduct detection (reaction with iron, DMPO spin trap)"
CC(=O)OCC1OC(C23C=C(C(C)(C)C)C(C4OC(COC(C)=O)C(OC(C)=O)C(OC(C)=O)C4OC(C)=O)(OO2)c2ccccc23)C(OC(C)=O)C(OC(C)=O)C1OC(C)=O (stereo not shown) [MB359EP],DMPO/^●C,22.8 G,16.1 G,0.70,
CC(=O)OCC1OC(OC23OOC(c4ccccc42)c2ccccc23)C(OC(C)=O)C(OC(C)=O)C1OC(C)=O (stereo not shown) [MonoGluAcEP],DMPO/^●C; also recorded: DMPO/^●OH,23.9 G and 14.5 G,15.8 G and 15.0 G,0.66 and 1.03,
CC(C)(C)c1ccc2c(c1)C1(c3cccnc3)OOC2(c2cccnc2)c2ccccc21 (stereo not shown) [mPyBuAcEP],,,,,no DMPO spin adduct could be detected
c1ccc(C23OOC(c4ccccn4)(c4ccccc42)c2ccccc23)nc1 [oPyAcEP],DMPO/^●C,23.3 G,15.7 G,0.67,
